For experiment [1], the system named is Cowpox virus. Description: Antiviral activity against Cowpox virus Brighton infected in HFF assessed as reduction of plaque formation after 3 days. In kind it is functional, organism-based.
In experiment [2] the test system is Vaccinia virus. As to the kind of experiment: Antiviral activity against Vaccinia virus WR infected in BALB/c mouse assessed as reduction of spleen viral titer at 15 mg/kg, po bid for 5 days administered 24 hrs after infection. The conditions noted are these: strain WR.
In experiment [3] the test system is Vaccinia virus. As to the kind of experiment: Antiviral activity against Vaccinia virus WR infected in BALB/c mouse assessed as reduction of liver viral titer at 15 mg/kg, ip qd for 5 days administered 24 hrs after infection. As to conditions: route intraperitoneal.
In experiment [4] the test system is Vaccinia virus. As to the kind of experiment: Antiviral activity against Vaccinia virus WR infected in BALB/c mouse assessed as reduction of kidney viral titer at 15 mg/kg, ip qd for 5 days administered 24 hrs after infection. As to conditions: route intraperitoneal, strain WR.
For experiment [5], the system named is Vaccinia virus. As to the kind of experiment: Antiviral activity against Vaccinia virus WR infected in BALB/c mouse assessed as reduction of liver viral titer at 15 mg/kg, po bid for 5 days administered 24 hrs after infection.
In experiment [6] the test system is Vaccinia virus. As to the kind of experiment: Antiviral activity against Vaccinia virus WR infected in BALB/c mouse assessed as reduction of lung viral titer at 15 mg/kg, ip qd for 5 days administered 24 hrs after infection. As to conditions: route intraperitoneal.
Experiment [7] concerns Vaccinia virus. As to the kind of experiment: Antiviral activity against Vaccinia virus WR infected in BALB/c mouse assessed as reduction of lung viral titer at 15 mg/kg, po bid for 5 days administered 24 hrs after infection.
The test system of experiment [8] is Vaccinia virus. Description: Antiviral activity against Vaccinia virus WR infected in BALB/c mouse assessed as reduction of spleen viral titer at 15 mg/kg, ip qd for 5 days administered 24 hrs after infection. As to conditions: route intraperitoneal, strain WR.
The subject of experiment [9] is Vaccinia virus. As to the kind of experiment: Antiviral activity against Vaccinia virus WR infected in BALB/c mouse assessed as reduction of kidney viral titer at 15 mg/kg, po bid for 5 days administered 24 hrs after infection. The conditions noted are these: strain WR.
Experiment [10] deals with Cowpox virus. Description: Antiviral activity against Cowpox virus Brighton infected in BALB/c mouse assessed as reduction of spleen viral titer at 15 mg/kg, ip qd for 5 days administered 24 hrs after infection. As to conditions: route intraperitoneal, strain Brighton.
The subject of experiment [11] is Cowpox virus. As to the kind of experiment: Antiviral activity against Cowpox virus Brighton infected in BALB/c mouse assessed as reduction of kidney viral titer at 15 mg/kg, po bid for 5 days administered 24 hrs after infection. As to conditions: strain Brighton.
Experiment [12] has as its system Cowpox virus. Description: Antiviral activity against Cowpox virus Brighton infected in BALB/c mouse assessed as reduction of spleen viral titer at 15 mg/kg, po bid for 5 days administered 24 hrs after infection. As to conditions: strain Brighton.
Experiment [13] concerns Cowpox virus. As to the kind of experiment: Antiviral activity against Cowpox virus Brighton infected in BALB/c mouse assessed as reduction of liver viral titer at 15 mg/kg, po bid for 5 days administered 24 hrs after infection.
For experiment [14], the system named is Cowpox virus. As to the kind of experiment: Antiviral activity against Cowpox virus Brighton infected in BALB/c mouse assessed as reduction of kidney viral titer at 15 mg/kg, ip qd for 5 days administered 24 hrs after infection. As to conditions: route intraperitoneal, strain Brighton.
Experiment [15] has as its system Cowpox virus. Description: Antiviral activity against Cowpox virus Brighton infected in BALB/c mouse assessed as reduction of liver viral titer at 15 mg/kg, ip qd for 5 days administered 24 hrs after infection. As to conditions: route intraperitoneal.

For the compound `Nc1ccn(C[C@@H](CO)OCP(=O)(O)O)c(=O)n1`, the EC50 with Cowpox virus [1] came out at 29 µM.

Consider `Nc1ccn(C[C@@H](CO)OCP(=O)(O)O)c(=O)n1.O.O`, for which the fold change (FC) in the experiment on Vaccinia virus [2] was found to be 5; in the experiment with Vaccinia virus [3], 5; with Vaccinia virus [4], 5; with Vaccinia virus [5], 5; in the experiment with Vaccinia virus [6], 1; with Vaccinia virus [7] it was 1. In addition, the fold change (FC) with Vaccinia virus [8] and with Vaccinia virus [9] was 5 throughout.

For the compound `O=c1[nH]c(=O)n([C@H]2C[C@H](O)[C@@H](CO)S2)cc1I`, the fold change (FC) with Vaccinia virus [2] came out at 5; with Cowpox virus [10], 2; in the experiment on Cowpox virus [11], 2; with Cowpox virus [12], 2; in the experiment with Vaccinia virus [3], 5; with Cowpox virus [13] it was 2. Also, the fold change (FC) was 5 with Vaccinia virus [4]; 2 in the experiment on Cowpox virus [14]; 5 in the experiment with Vaccinia virus [5]; 2 in the experiment on Cowpox virus [15]; 1 with Vaccinia virus [6]; 1 with Vaccinia virus [7]. Moreover, the fold change (FC) in the experiment on Vaccinia virus [8] and in the experiment on Vaccinia virus [9] was 5 each time. In addition, the 50% effective concentration (EC50) in the experiment on Cowpox virus [1] is 0.1 µM.

The EC50 is the concentration needed to bring the measured effect to its halfway point.

These data come from ChEMBL document CHEMBL1629620 (Antimicrob Agents Chemother, 2009).
